Results taken from patent publication US9617262B2, “Antibacterial cyclopental[C]pyrrole substituted 3,4-dihydro-1H-[1,8]naphthyridinones” (Janssen Sciences Ireland UC, priority 2011, dated 2017).
In brackets after ≈: the same amount, converted by molar mass.

Amino acid sequences for entries named in this document (tags omitted).
UniProt Q6GI75, whole entry: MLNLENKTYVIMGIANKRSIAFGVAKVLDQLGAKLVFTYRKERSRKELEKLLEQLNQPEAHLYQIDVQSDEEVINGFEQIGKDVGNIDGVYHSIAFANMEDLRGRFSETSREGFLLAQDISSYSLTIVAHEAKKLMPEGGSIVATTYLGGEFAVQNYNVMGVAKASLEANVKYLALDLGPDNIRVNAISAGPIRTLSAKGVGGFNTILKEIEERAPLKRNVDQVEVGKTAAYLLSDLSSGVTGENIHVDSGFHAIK

What was measured:
[1] = molecular target: S. aureus ATCC 29213 FabI (Staphylococcus aureus (strain MRSA252), UniProt Q6GI75); test: Staphylococcus aureus FabI enzyme inhibition assay; conditions: pH 6.5, 30 minutes at room temperature
Description: FabI enzyme inhibition assays were carried out in half-area, 384-well microtitre plates. Compounds were evaluated in 40-μl assay mixtures containing 100 mM NaADA, pH 6.5 (ADA=N-[2-acetamido]-2iminodiacetic acid), 250 μM crotonoyl-CoA, 625 μM NADH and 50 μg/ml S. aureus ATCC 29213 FabI. Inhibitors were typically varied over the range of 50 to 0.39 μM. The reaction mixtures were incubated for 30 minutes at room temperature and the reaction was stopped by adding 200 mM Tris buffer (pH 9.0) to create a pH-shift. The consumption of NADH was monitored by measuring the change in absorbance at […]. By comparing sample readings to those of negative (absence of compound) and positive (absence of enzyme) controls, the percent inhibition of enzymatic activity of the compounds was determined. A best-fit curve is fitted by a minimum of squares method. From this an IC50-value (expressed in μg/ml), resulting in 50% inhibition of enzymatic activity, was obtained.

[2] = system: Escherichia coli ATCC 25922; reference strain; test: Antimicrobial spectrum, broth microdilution MIC; format: cell-based; conditions: E. coli ATCC 25922
Description: (§1) Minimum Inhibitory Concentrations (MICs) were determined in accordance with the Clinical and Laboratory Standards Institute (CLSI) methodology against aerobic bacteria (CLSI M07-A8) (see Clinical and Laboratory Standards Institute. 2009. Methods for dilution antimicrobial susceptibility tests for bacteria that grow aerobically. CLSI document M07-A8, Vol. 29, No. 2.) by the broth microdilution method with cation-adjusted Mueller-Hinton broth (CA-MHB) medium for the majority of organisms, except for Haemophilus influenza, where Haemophilis test medium (HTM) broth was used. Descriptions of the individual organisms can be found in the table. Where possible, ATCC standard strains were tested.
(§2) The inoculum density for the susceptibility testing was standardized to give a final inoculum of approximately 5×10^5 CFU/mL. The broth MIC was determined as the lowest concentration of drug that prevented visible growth after 16-24 hours (species dependent) of incubation at 35° C.-37° C.
(§3) Stock solutions of the compounds were prepared in DMSO at concentrations of 1 mg/mL. Linezolid was prepared in DMSO at a concentration of 2 mg/mL. Stock solutions of all compounds were diluted into CA-MHB to give a range of two-fold dilutions, depending upon the sensitivity of the organism being tested.

[3] = system: Haemophilus influenzae ATCC 49247; reference strain; test: Antimicrobial spectrum, broth microdilution MIC; format: cell-based; conditions: H. influenza ATCC 49247
Description: as §1, §2, §3

[4] = system: Moraxella catarrhalis ATCC 8176; b-lactamase negative; test: Antimicrobial spectrum, broth microdilution MIC; format: cell-based; conditions: M. catarrhalis ATCC 8176
Description: as §1, §2, §3

[5] = system: Staphylococcus aureus ATCC 29213; reference strain MSSA; test: Antimicrobial spectrum, broth microdilution MIC; format: cell-based; conditions: S. aureus ATCC 29213
Description: as §1, §2, §3

[6] = system: Staphylococcus aureus ATCC 43300; reference strain MRSA; test: Antimicrobial spectrum, broth microdilution MIC; format: cell-based; conditions: S. aureus ATCC 43300
Description: as §1, §2, §3

[7] = system: Staphylococcus aureus NRS119; LZD-R; test: Antimicrobial spectrum, broth microdilution MIC; format: cell-based; conditions: S. aureus NRS119
Description: as §1, §2, §3

[8] = system: Staphylococcus aureus NRS120; LZD-R; test: Antimicrobial spectrum, broth microdilution MIC; format: cell-based; conditions: S. aureus NRS120
Description: as §1, §2, §3

[9] = system: Staphylococcus aureus NRS121; LZD-R; test: Antimicrobial spectrum, broth microdilution MIC; format: cell-based; conditions: S. aureus NRS121
Description: as §1, §2, §3

[10] = system: Escherichia coli Tol C mutant; test: Antimicrobial spectrum, broth microdilution MIC; conditions: E. coli tolC mutant
Description: as §1, §2, §3

[11] = In vivo pharmacokinetic and oral bioavailability; conditions: male Swiss mice
Description: The in vivo pharmacokinetics and oral bioavailability of the compound of the examples was/is investigated in male Swiss mice (fed) following single intravenous (i.v.) bolus and oral (p.o.) administration. For the i.v. and p.o. solution formulations, the compound was/is dissolved in a 20% HP-β-CD solution. The pH of the formulations was/is around pH 4. All i.v. formulations were isotonic.

[12] = system: Methicillin-sensitive Staphylococcus aureus strain ATCC 29213; test: In vivo efficacy, peritonitis model of S. aureus infection; conditions: PO, Sol 20% CD + 1HC1, IP infection, inoculum 8.9 log10, female Swiss albino mice, 3 days post-infection
Text: The concept of studying the in vivo effect of an antibacterial compound by treating intraperitoneally infected mice was introduced in 1911 for optochin against pneumococci (Morgenroth and Levy, 1911). The popularity of the model comes from the ease of its use with short-duration experiments, reproducible infections and simple end-points.
Methicillin-sensitive Staphylococcus aureus strain ATCC 29213 was used to infect female Swiss albino mice. A Brain Heart Infusion (BHI) broth bacterial culture was inoculated the day before infection, incubated at 37° C. overnight and diluted in fresh BHI broth to the desired concentration. I.p. injection of ˜5×10^8-5×10^9 colony forming units (CFU) was performed in either of the lateral lower quadrants of the abdomen. After inoculation, mice were kept in their cages under daily observation for development of signs of infection or death. For the treatment of mice, both the p.o. and i.v. routes were used and each mouse was treated individually by gavage or by i.v. injection. Both solutions (p.o. and i.v.) and suspensions (p.o.) were tested in this model. The parameter used for monitoring the course of infection and the effect of treatment was death or survival of the animals over 3 days post-infection. […]

With `Cc1csc(C2=CC3CN(C(=O)/C=C/c4cnc5c(c4)CCC(=O)N5)CC3C2)c1` (centres unmarked) the “FabI IC50” value [1] was 0.63 µg/mL.
In the case of `O=C1CCc2cc(/C=C/C(=O)N3CC4C=CCC4C3)cnc2N1` (centres unmarked), the “FabI IC50” value [1] was 0.83 µg/mL.
In the case of `COc1ccncc1C1=CC2CN(C(=O)/C=C/c3cnc4c(c3)CCC(=O)N4)CC2C1` (centres unmarked), the “FabI IC50” value [1] was 0.54 µg/mL.
For `O=C1CCc2cc(/C=C/C(=O)N3C[C@@H]4CC(c5ccncc5)=C[C@@H]4C3)cnc2N1` (single isomer, unassigned), the “FabI IC50” value [1] was 0.44 µg/mL, the MIC90 [2] was 8 µg/mL (≈ 20.7 µM) and the MIC90 [3] was 0.5 µg/mL (≈ 1.29 µM). It also gave an MIC90 [4] of 0.12 µg/mL (≈ 0.311 µM), an MIC90 [5] of 0.03 µg/mL (≈ 0.0776 µM) and an MIC90 [6] of 0.03 µg/mL (≈ 0.0776 µM). The MIC90 [7] was 0.06 µg/mL (≈ 0.155 µM), the MIC90 [8] was 0.06 µg/mL (≈ 0.155 µM) and the MIC90 [9] was 0.06 µg/mL (≈ 0.155 µM). It also gave an MIC90 [10] of 1 µg/mL (≈ 2.59 µM).
With `O=C1CCc2cc(/C=C/C(=O)N3CC4C=C(c5cccnc5Cl)CC4C3)cnc2N1` (centres unmarked) the “FabI IC50” value [1] was 0.43 µg/mL.
For `CN(C)C(=O)C1=CC2CN(C(=O)/C=C/c3cnc4c(c3)CCC(=O)N4)CC2C1` (centres unmarked), the “FabI IC50” value [1] was 1.62 µg/mL.
With `Cc1noc(C)c1C1=CC2CN(C(=O)/C=C/c3cnc4c(c3)CCC(=O)N4)CC2C1` (centres unmarked) the “FabI IC50” value [1] was 0.51 µg/mL.
With `O=C1CCc2cc(/C=C/C(=O)N3C[C@H]4CC(c5ccsc5)=C[C@H]4C3)cnc2N1` the “FabI IC50” value [1] was 0.46 µg/mL, the MIC90 [2] was >8 µg/mL and the MIC90 [3] was >8 µg/mL. For the same molecule, the MIC90 [4] was 0.25 µg/mL (≈ 0.639 µM), the MIC90 [5] was 0.03 µg/mL (≈ 0.0766 µM) and the MIC90 [6] was 0.03 µg/mL (≈ 0.0766 µM). For the same molecule, the MIC90 [7] was 0.03 µg/mL (≈ 0.0766 µM), the MIC90 [8] was 0.03 µg/mL (≈ 0.0766 µM) and the MIC90 [9] was 0.06 µg/mL (≈ 0.153 µM). For the same molecule, the MIC90 [10] was >8 µg/mL, the “Plasma clearance Cl” value ([11]; i.v. 2.5 mg/kg) was 0.49 L/h/kg and the Vdz ([11]; i.v. 2.5 mg/kg) was 0.9 L/kg. For the same molecule, the C0 ([11]; i.v. 2.5 mg/kg, 20% HP-β-CD solution) was 4524 ng/mL, the Oral bioavailability ([11]; p.o. 10 mg/kg vs i.v. 2.5 mg/kg) was 59% and the “% Survival” value ([12]; QD 1 mpk) was 57%. The “% Survival” value ([12]; QD 5 mpk) was 100%.
For `O=C1CCc2cc(/C=C/C(=O)N3CC4C=C(c5cn[nH]c5)CC4C3)cnc2N1` (centres unmarked), the “FabI IC50” value [1] was 0.54 µg/mL.
With `O=C1CCc2cc(/C=C/C(=O)N3CC4C=C(c5ccsc5Cl)CC4C3)cnc2N1` (centres unmarked) the “FabI IC50” value [1] was 0.76 µg/mL.
With `COc1ccccc1C1=CC2CN(C(=O)/C=C/c3cnc4c(c3)CCC(=O)N4)CC2C1` (centres unmarked) the “FabI IC50” value [1] was ~0.6 µg/mL.
For `O=C1CCc2cc(/C=C/C(=O)N3C[C@@H]4CC(O)(c5ccccc5)C[C@@H]4C3)cnc2N1` (some centres unmarked), the “FabI IC50” value [1] was 2.55 µg/mL.
With `O=C1CCc2cc(C#CC(=O)N3CC4C=C(c5ccccc5)CC4C3)cnc2N1` (centres unmarked) the “FabI IC50” value [1] was 0.80 µg/mL.
For `N#Cc1ccc(C2=CC3CN(C(=O)/C=C/c4cnc5c(c4)CCC(=O)N5)CC3C2)s1` (centres unmarked), the “FabI IC50” value [1] was 0.63 µg/mL.
With `NC(=O)C1=CC2CN(C(=O)/C=C/c3cnc4c(c3)CCC(=O)N4)CC2C1` (centres unmarked) the “FabI IC50” value [1] was 2.93 µg/mL.
In the case of `O=C1CCc2cc(/C=C/C(=O)N3CC4C=C(Cc5ccccc5)CC4C3)cnc2N1` (centres unmarked), the “FabI IC50” value [1] was 0.60 µg/mL.
In the case of `O=C1CCc2cc(/C=C/C(=O)N3CC4C=C(c5ccc(Cl)s5)CC4C3)cnc2N1` (centres unmarked), the “FabI IC50” value [1] was 0.99 µg/mL.
With `CCC1=CC2CN(C(=O)/C=C/c3cnc4c(c3)CCC(=O)N4)CC2C1` (centres unmarked) the “FabI IC50” value [1] was 0.36 µg/mL.
With `CCOC(=O)C1=CC2CN(C(=O)/C=C/c3cnc4c(c3)CCC(=O)N4)CC2C1` (centres unmarked) the “FabI IC50” value [1] was 0.54 µg/mL.
In the case of `Cc1nnc(C2=CC3CN(C(=O)/C=C/c4cnc5c(c4)CCC(=O)N5)CC3C2)s1` (centres unmarked), the “FabI IC50” value [1] was 0.44 µg/mL.
